Values from PubChem BioAssay AID624099 (ICCB-Longwood, 2012).
Here is a random part of about 21,000 reagents. 497 of all reagents (2.4%) were called active. 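Higher z means weaker E2 silencing; only reporter increases were scored, and knock-downs that hurt cell survival may mask genuine repressor factors.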

- Assay: 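Human genes that papillomavirus E2 requires to repress the HPV18 LCR promoter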 (primary screen)
- Cells: human C33A cervical carcinoma cells (HPV-negative) stably expressing BPV1 E2 and an HPV18 LCR luciferase reporter
- Reagents: siRNA pool against human genes, 40 nM
- Time to read-out: 72 h
- Measured: 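Per-well luciferase luminescence, z-scored on each plate against the plate mean and SD with control wells left out, then averaged across three replicate plates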
- Reading the numbers: mean z-score and z-score: higher = stronger reporter signal, weaker E2 silencing
- Active means: 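Mean z ≥ 2 together with z ≥ 2 in two or more of the three replicates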

no.	Target gene	mean z-score	z-score, replicate A	z-score, replicate B	z-score, replicate C	outcome
1	KLK10	0.52	0.78	0.44	0.33	inactive
2	MNDA	-0.34	-0.22	-0.23	-0.58	inactive
3	LINC02868	-1.07	-0.81	-1.03	-1.37	inactive
4	STAC3	0.3	0.33	0.33	0.25	inactive
5	TRAT1	-2.36	-2.08	-2.44	-2.56	inactive
6	DCT	0.54	0.56	0.56	0.51	inactive
7	LOC389100 (retired record)	-2.79	-2.85	-2.93	-2.58	inactive
8	BRI3	-0.47	-0.35	-0.59	-0.47	inactive
9	ALOX5AP	-0.72	-0.56	-1.09	-0.51	inactive
10	ZNF587	-0.23	-0.33	-0.37	0	inactive
11	NACA3P	-0.8	-1.03	-1.12	-0.25	inactive
12	DPY19L2P2	1.22	1.28	1.18	1.2	inactive
13	PCSK1N	-0.28	0.11	-0.32	-0.62	inactive
14	EXOSC5	0.15	0.08	0.11	0.27	inactive
15	NCAM1	0.56	0.52	0.76	0.39	inactive
16	LMCD1-AS1	0.33	0.52	0.34	0.12	inactive
17	OR1L1	0.3	0.61	-0.22	0.51	inactive
18	CAPN3	-1.32	-1.43	-1.17	-1.38	inactive
19	NIPA1	1.96	1.79	2.31	1.78	inactive
20	ETV2	-0.38	-0.26	-0.38	-0.5	inactive
21	TEKT1	0.77	0.54	0.81	0.97	inactive
22	MOB3A	-0.52	-0.35	-0.9	-0.31	inactive
23	TCHH	0.45	0.76	0.57	0.03	inactive
24	HSD3B7	-0.41	-0.33	-0.58	-0.31	inactive
25	MRPL46	-0.25	0.04	-0.35	-0.44	inactive
26	INSM2	-1.39	-0.62	-1.63	-1.93	inactive
27	EPHX1	1.57	1.27	2.06	1.37	inactive
28	KCNK7	-0.95	-0.73	-0.92	-1.2	inactive
29	LOC342934 (retired record)	-0.34	-0.54	-0.25	-0.23	inactive
30	ZIK1	0.16	-0.28	0.63	0.14	inactive
31	QKI	-0.59	-0.67	-0.85	-0.27	inactive
32	CATSPERT	0.19	0.73	0.02	-0.17	inactive
33	MCM8	0.18	0.17	0.21	0.17	inactive
34	CTNS	-0.14	-0.26	-0.31	0.15	inactive
35	ZNF550	0.63	1.07	0.53	0.28	inactive
36	KCNJ5-AS1	0.91	1.16	0.65	0.91	inactive

Part of the list above, reduced to “mean z-score”.
BRI3	-0.47
ALOX5AP	-0.72
ZNF587	-0.23
NACA3P	-0.8
DPY19L2P2	1.22
PCSK1N	-0.28
EXOSC5	0.15
NCAM1	0.56
LMCD1-AS1	0.33
OR1L1	0.3
CAPN3	-1.32

More reagents follow:
no.	Target gene	mean z-score	z-score, replicate A	z-score, replicate B	z-score, replicate C	outcome
37	RIF1	0.32	0.58	0.36	0.03	inactive
38	ZCCHC9	-1.16	-1.2	-1.15	-1.13	inactive
39	TAF1B	0.26	0.08	0.42	0.28	inactive
40	TSPEAR-AS2	-0.06	0.39	0.06	-0.61	inactive
41	CNTNAP5	0.2	0.53	0.13	-0.05	inactive
42	NTN3	-0.66	-0.71	-0.8	-0.47	inactive
43	LOC392238 (retired record)	0.06	0.02	0.2	-0.04	inactive
44	CCDC140	-0.3	-0.37	-0.2	-0.33	inactive
45	OXLD1	0.64	0.94	0.47	0.51	inactive
46	NUDT15	0.5	0.27	0.58	0.65	inactive
47	TYMS	-0.51	-0.11	-0.83	-0.58	inactive
48	MRPL20-AS1	0.46	0.65	0.2	0.54	inactive
49	RUBCNL	0.78	1.03	0.64	0.66	inactive
50	LOC402103 (retired record)	-0.68	-0.46	-1.06	-0.53	inactive
51	MYH11	-1.48	-1.36	-1.86	-1.22	inactive
52	LOC93463	-0.69	-0.35	-1.05	-0.67	inactive
53	PNMA5	-0.55	-0.78	-0.54	-0.34	inactive
54	SUMO4	2.12	2.35	2.02	1.98	active
55	PI4KAP2	-0.52	-0.65	-0.25	-0.67	inactive
56	ZNF816	0.95	1.19	0.94	0.7	inactive
57	RGS5	-0.33	-0.13	-0.02	-0.84	inactive
58	ARRDC2	0.68	0.67	0.82	0.56	inactive
59	BHLHE22	0.62	0.06	0.83	0.96	inactive
60	ZNF354B	0.02	0.39	-0.43	0.11	inactive
61	ZSCAN25	-1.05	-1.16	-1.19	-0.81	inactive
62	HCRTR2	1.05	1	1.29	0.86	inactive
63	FAM170B	1.04	1.08	1.07	0.97	inactive
64	TRIM75	0.34	0.23	0.75	0.04	inactive
65	CHD8	2.05	1.98	2.47	1.71	inactive
66	LOC345537 (retired record)	1.93	1.89	1.8	2.1	inactive
67	MCTP1	1.01	0.63	1.74	0.67	inactive
68	LOC387717 (retired record)	-0.15	-0.32	-0.32	0.18	inactive
69	NCR1	-0.14	0.08	-0.27	-0.22	inactive
70	PBDC1	-1.01	-0.68	-0.94	-1.4	inactive
71	PAK1	0.64	0.58	0.62	0.72	inactive
72	SBDS	0.2	0.09	0.16	0.34	inactive
73	SAP30	0.02	-0.3	0.08	0.28	inactive
